According to patent US11510929B2, “Mitigation of epileptic seizures by combination therapy using benzodiazepines and neurosteroids” (dated 2022):

Columns and labels:
TETS-intoxicated animals = assay: TETS-induced seizures and death in mice; conditions: for TETS-intoxicated animals protected from death, pretreatment: 0.1 mg/kg i.p. 10 minutes before TETS injection
hippocampal neurons [1] = assay: Mitigation of TETS-induced Phase II Ca2+ response, agents added post-TETS (FLIPR Fluo-4); conditions: post-TETS addition, TETS 3 μM; for effect on TETS-induced decreased Ca2+ oscillation frequency: 0.1 μM each agent
hippocampal neurons [2] = assay: Mitigation of TETS-induced Ca2+ dysregulation, agents added 10 min prior to TETS (FLIPR Fluo-4); conditions: for effect on Phase I or Phase II Ca2+ dysregulation, single agent: 0.1 μM by itself; for effect on Phase I plateau response: single agent, up to 1 μM
[3] = pre-exposure 0.03-1 μM, TETS 3 μM

CC(=O)[C@H]1CC[C@H]2[C@@H]3CC[C@H]4C[C@H](O)CC[C@]4(C)[C@H]3CC[C@]12C
TETS-intoxicated animals protected from death, pretreatment (TETS-intoxicated animals; survival at 24 h): 50% | protection from death compared with low dose diazepam (TETS-intoxicated animals; post-administration 0.03 mg/kg): no more efficacious than low dose diazepam | decrease of TETS-induced Ca2+ oscillation amplitude (hippocampal neurons [1]; 0.1 μM alone, p<0.01): 20% | effect on TETS-induced decreased Ca2+ oscillation frequency (hippocampal neurons [1]): without significant effect | mitigation of Phase I response induced by TETS compared with diazepam (hippocampal neurons [2]): more effective | effect on Phase I or Phase II Ca2+ dysregulation, single agent (hippocampal neurons [2]): minimal effects | Phase II effect of TETS on amplitude (hippocampal neurons [2]; 1 μM): completely reversed | effect on TETS response in Phase I (hippocampal neurons [2]; 1 μM): partially attenuated | effectiveness alone at the highest concentration tested (hippocampal neurons [2]; 1 μM): neither diazepam nor allopregnanolone alone was fully effective | effect on basal spontaneous Ca2+ fluctuations (hippocampal neurons [2]; 0.1-1 μM): concentration-dependent suppression | effect on Phase II effect of TETS on frequency and amplitude (hippocampal neurons [2]; 0.3 and 1 μM): inhibited | effect on Phase I plateau response (hippocampal neurons [2]; TETS 3 μM): without eliminating

C[C@]12N[C@H](Cc3ccccc31)c1ccccc12
effect on basal Ca2+ oscillations (hippocampal neurons [2]; 1 μM): slightly suppressed | effect on TETS-induced Phase I and Phase II Ca2+ responses (hippocampal neurons [2]; 1 μM, preincubation 10 min, TETS 3 μM): attenuated both Phase I and Phase II effects of TETS

CN1C(=O)CN=C(c2ccccc2)c2cc(Cl)ccc21
TETS-intoxicated animals protected from death (TETS-intoxicated animals; 0.03 mg/kg immediately following the second clonic seizure, survival at 24 h): < 10% | TETS-intoxicated animals protected from death, pretreatment (TETS-intoxicated animals; survival at 24 h): < 30% | rescue from TETS-induced death (TETS-intoxicated animals; 5 mg/kg, i.p., immediately following the second clonic seizure): rescued | effect on TETS-induced decreased Ca2+ oscillation frequency (hippocampal neurons [1]): without significant effect | effect on Phase I or Phase II Ca2+ dysregulation, single agent (hippocampal neurons [2]): minimal effects | effectiveness alone at the highest concentration tested (hippocampal neurons [2]; 1 μM): neither diazepam nor allopregnanolone alone was fully effective | effect on basal spontaneous Ca2+ oscillations (hippocampal neurons [2]; 0.1, 0.3, or 1 μM): attenuation in the amplitude of basal spontaneous Ca2+ oscillations | effect on Phase I integrated rise in Ca2+ induced by TETS (hippocampal neurons [2]; [3]): small concentration-dependent reduction | effect on Phase II frequency and amplitude effects of TETS (hippocampal neurons [2]; [3]): partial inhibition | concentration at which effect on Phase II amplitude reached significance (hippocampal neurons [2]; pre-exposure, TETS 3 μM): 0.1 µM | concentration at which reduction of Phase I integrated rise reached statistical significance (hippocampal neurons [2]; pre-exposure, TETS 3 μM): 1 µM | effect on Phase I plateau response (hippocampal neurons [2]; TETS 3 μM): did not eliminate
